Test results: PubChem BioAssay AID1899 (The Scripps Research Institute Molecular Screening Center, 2009)
This is a selection; strong and weak results do not stand in their true shares. Some salts and complexes are drawn in separate pieces, as the source files them; their charges need not balance. The source made the active and inactive calls.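 How the source made its calls: active means inhibition above the mean of all tested compounds plus 3 SD, set per screening campaign (cut at about 45% in these data); inactive means the rest.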

The molecules below were run on HCV core protein (residues 1-106) dimerization (assay: inhibitors of HCV core protein dimerization, primary screen, biochemical, TR-FRET, high-throughput (AID 1899)). Settings: TR-FRET GST/Flag-core106 dimerization, 1536-well; at 5 µM; active compounds read high.
Procedure, shortened: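 System – GST-tagged and Flag-tagged HCV core protein residues 1-106 · Repeats – one well for each compound · Technique – TR-FRET 671 and 617 nm emission · Doses – one concentration, 5 µM, in 0.5% DMSO · Times – 4 h, 22.5 °C incubation · Also added – Eu donor and XL665 acceptor anti-tag antibodies · Measure – percent inhibition of core106 dimerization signal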
For `CCOC(=O)c1ccc(NP(C)(=O)Oc2ccc(F)cc2)cc1` (stereo not drawn), the inhibition was inactive: -9.77%. In the case of `COc1ccc(OP(C)(=O)Nc2ccc(SC(F)(F)F)cc2)cc1` (stereo not drawn), the inhibition is reported as inactive: 1%. `CP(=O)(Nc1ccccc1)Oc1ccc(F)cc1` (stereo not drawn) was tested, and the inhibition was inactive: -6.31%. In the case of `CCCCCOc1ccc(NP(C)(=O)Oc2ccc(Cl)cc2Cl)cc1` (stereo not drawn), the inhibition is reported as inactive: -4.12%. In the case of `O=[N+]([O-])c1cc([N+](=O)[O-])c(OC2CCCCC2O)c([N+](=O)[O-])c1` (stereo not drawn), the inhibition is reported as inactive: 6.53%. For `CCN(CC)CCCOC(=O)C(O)(c1ccccc1)C1CCCCC1` (stereo not drawn), the inhibition was inactive: -3.62%. With `CP(=O)(Nc1ccccc1F)Oc1ccccc1` (stereo not drawn) the inhibition was inactive: -2.76%. For `CC(C)c1ccc(OP(C)(=O)Nc2ccc(SC(F)(F)F)cc2)cc1` (stereo not drawn), the inhibition was inactive: -5.62%. In the case of `COc1ccc2c(c1O)-c1c(O)c(OC)cc3c1[C@H](C2)[N+](C)(C)CC3.O=[N+]([O-])c1cc([N+](=O)[O-])c([O-])c([N+](=O)[O-])c1[O-]`, the inhibition is reported as inactive: 4.16%. For `O=C(OC1CN2CCC1CC2)c1ccc([N+](=O)[O-])cc1` (stereo not drawn), the inhibition was inactive: -0.47%. For `O=C(OCCN1CCN(CCOCc2ccccc2)CC1)C(O)(c1ccccc1)c1ccccc1`, the inhibition was inactive: 0.16%. With `CCOP(C)(=S)SCC(=O)NC(C)(CC)C(=O)O` (stereo not drawn) the inhibition was inactive: -3.06%. In the case of `CP(=O)(Nc1ccc(SC(F)(F)F)cc1)Oc1ccc(F)cc1` (stereo not drawn), the inhibition is reported as inactive: 5.56%. For `Cc1ccccc1NP(C)(=O)Nc1ccccc1C`, the inhibition was inactive: 0.16%. With `CP(=O)(Nc1ccc2c(c1)OCCO2)Oc1ccccc1` (stereo not drawn) the inhibition was inactive: -2.56%. For `CN(C)CCOC(=O)C(O)(c1ccccc1)C1CCCCC1` (stereo not drawn), the inhibition was inactive: -0.78%. With `COc1ccc(NP(C)(=O)Oc2ccccc2OC)cc1` (stereo not drawn) the inhibition was inactive: 2.88%. `COc1ccc(OP(C)(=O)Nc2cccc(Br)c2)cc1` (stereo not drawn) was tested, and the inhibition was inactive: -2.09%. In the case of `O=[N+]([O-])c1cc([N+](=O)[O-])c(NCC2CCS(=O)(=O)C2)c([N+](=O)[O-])c1` (stereo not drawn), the inhibition is reported as inactive: 5.72%. `CCOC(=O)c1ccc(NP(C)(=O)Oc2ccc(Cl)cc2)cc1` (stereo not drawn) was tested, and the inhibition was inactive: -1.61%. In the case of `CP(=O)(OC12CC3CC(CC(C3)C1)C2)OC12CC3CC(CC(C3)C1)C2`, the inhibition is reported as inactive: 5.88%. In the case of `Nc1ccc2c(ccc3cccnc32)n1.O=[N+]([O-])c1cc([N+](=O)[O-])c(O)c([N+](=O)[O-])c1`, the inhibition is reported as inactive: 0.99%. In the case of `COc1ccccc1OP(C)(=O)Nc1c(C)n(C)n(-c2ccccc2)c1=O` (stereo not drawn), the inhibition is reported as inactive: -8.55%. With `O=C(OCCCN1CCCC1)C(O)(c1ccccc1)C1CCCCC1` (stereo not drawn) the inhibition was inactive: 0.15%. In the case of `CP(=O)(Oc1ccccc1)N1CCOC1=O` (stereo not drawn), the inhibition is reported as inactive: -4.09%. In the case of `CCc1ccc(OP(C)(=O)Nc2cccnc2)cc1` (stereo not drawn), the inhibition is reported as inactive: 0.25%. `CCN(CC)CC(O)COC(=O)C(O)(c1ccccc1)C1CCCCC1` (stereo not drawn) was tested, and the inhibition was inactive: -7.04%. With `COc1ccc(OP(C)(=O)Nc2ccc(Br)cc2)cc1` (stereo not drawn) the inhibition was inactive: 1.28%. With `CN(C)C(=O)c1c([N+](=O)[O-])cc([N+](=O)[O-])cc1[N+](=O)[O-]` the inhibition was inactive: -2.36%. `CC(C)(C)c1ccc(OP(C)(=O)O)cc1` was tested, and the inhibition was inactive: -5.57%. In the case of `COc1ccccc1OP(C)(=O)Nc1ccccc1Br` (stereo not drawn), the inhibition is reported as inactive: -4.23%. With `CP(=O)(Nc1ccc(Cl)cc1)Oc1ccc(F)cc1` (stereo not drawn) the inhibition was inactive: -6.14%. `COc1ccc(OP(C)(=O)Nc2ccccn2)cc1` (stereo not drawn) was tested, and the inhibition was inactive: 6.18%. `CN(C)CCOC(=O)C(O)(c1ccccc1)C1CCCC1` (stereo not drawn) was tested, and the inhibition was inactive: -4.12%. `COc1ccccc1OP(C)(=O)Nc1ccc(Br)cc1` (stereo not drawn) was tested, and the inhibition was inactive: -2.33%. `CP(=O)(Nc1ccccn1)Oc1ccccc1` (stereo not drawn) was tested, and the inhibition was inactive: -0.62%. In the case of `COc1ccccc1OP(C)(=O)Nc1ccc(C)cc1C` (stereo not drawn), the inhibition is reported as inactive: -2.1%. For `CCc1ccc(OP(C)(=O)O)cc1`, the inhibition was inactive: -2.2%. In the case of `O=[N+]([O-])c1cc([N+](=O)[O-])c(Nc2ccccn2)c([N+](=O)[O-])c1`, the inhibition is reported as inactive: -0.85%. `Cc1c(NP(C)(=O)Oc2ccc(C(C)C)cc2)c(=O)n(-c2ccccc2)n1C` (stereo not drawn) was tested, and the inhibition was inactive: -3.73%. With `COc1ccccc1OP(C)(=O)Nc1ccc(C)c(C)c1` (stereo not drawn) the inhibition was inactive: -1.46%. With `COc1ccc(OP(C)(=O)Nc2ccccc2Br)cc1` (stereo not drawn) the inhibition was inactive: 0.51%. With `Cc1cc(C)cc(OP(C)(=O)Nc2cccc(C(F)(F)F)c2)c1` (stereo not drawn) the inhibition was inactive: -5.1%. For `CP(=O)(OCCOc1ccccc1)OCCOc1ccccc1`, the inhibition was inactive: 2.88%. With `CP(=O)(Nc1ccc(Cl)cc1Cl)Oc1ccccc1` (stereo not drawn) the inhibition was inactive: -2.19%. For `Cc1nc2ccc3ccccc3c2o1.O=[N+]([O-])c1cc([N+](=O)[O-])c(O)c([N+](=O)[O-])c1`, the inhibition was inactive: -6.35%. For `O=[N+]([O-])c1ccc2c(c1)C=Nc1ccccc1O2`, the inhibition was inactive: 7.86%. For `CC(C)(C)c1ccc(OP(C)(=O)Nc2ccc(SC(F)(F)F)cc2)cc1` (stereo not drawn), the inhibition was inactive: 2.23%. `Cc1cccc(C)c1OP(C)(N)=O` (stereo not drawn) was tested, and the inhibition was inactive: -0.27%. In the case of `O=[N+]([O-])c1cc([N+](=O)[O-])c(Nc2cccnc2)c([N+](=O)[O-])c1`, the inhibition is reported as inactive: -3.06%. For `Cc1cc(C)cc(OP(C)(N)=O)c1` (stereo not drawn), the inhibition was inactive: -1%. For `COc1ccccc1OP(C)(=O)Nc1cc(Cl)ccc1C` (stereo not drawn), the inhibition was inactive: 4.36%. `COc1ccc(OP(C)(=O)Nc2cccc(F)c2)cc1` (stereo not drawn) was tested, and the inhibition was inactive: -2.99%. `COc1ccccc1OP(C)(=O)Nc1ccc(C)cc1` (stereo not drawn) was tested, and the inhibition was inactive: -3.52%. `Cc1ccc(NP(C)(=O)Oc2ccccc2)c(C)c1` (stereo not drawn) was tested, and the inhibition was inactive: -10.8%. With `CCOC(=O)c1ccc(NP(C)(=O)Oc2ccccc2)cc1` (stereo not drawn) the inhibition was inactive: -0.21%. In the case of `CCN(CC)CCCOC(=O)C(O)(c1ccccc1)c1ccccc1`, the inhibition is reported as inactive: 7.09%. In the case of `CCc1ccc(OP(C)(=O)N2CCN(c3ccc([N+](=O)[O-])cc3)CC2)cc1` (stereo not drawn), the inhibition is reported as inactive: -1.45%. For `CP(=O)(NC(=O)Nc1ccccc1)Oc1ccccc1` (stereo not drawn), the inhibition was inactive: 3.95%. With `Cc1cc(C)cc(OP(C)(=O)Nc2ccc(SC(F)(F)F)cc2)c1` (stereo not drawn) the inhibition was inactive: 1.94%. `Cc1cccc(C)c1OP(C)(=O)Nc1ccc(SC(F)(F)F)cc1` (stereo not drawn) was tested, and the inhibition was inactive: -2.52%. In the case of `CP(=O)(Nc1ccc(SC(F)(F)F)cc1)Oc1ccc(Cl)cc1` (stereo not drawn), the inhibition is reported as inactive: 0.81%. In the case of `CP(=O)(Oc1ccccc1)OC(c1ccccc1)C(F)(F)F` (stereo not drawn), the inhibition is reported as inactive: -3%. For `CP(=O)(Nc1ccccn1)Oc1ccc(Cl)cc1` (stereo not drawn), the inhibition was inactive: 4.88%. For `CCOC(=O)c1ccc(NP(C)(=O)Oc2ccc(OC)cc2)cc1` (stereo not drawn), the inhibition was inactive: 1.21%. With `O=[N+]([O-])c1cc([N+](=O)[O-])c(O)c([N+](=O)[O-])c1.c1ccc(Oc2ccncc2)cc1` the inhibition was inactive: -6.17%. With `CCOP(C)(=S)SCC(=O)NC(C)C(=O)O` (stereo not drawn) the inhibition was inactive: -2.55%. With `CP(=O)(Nc1ccccc1Br)Oc1ccccc1` (stereo not drawn) the inhibition was inactive: 3%. For `COc1ccccc1OP(C)(=O)Nc1ccccc1` (stereo not drawn), the inhibition was inactive: -0.81%. With `CP(=S)(Nn1cnnc1)Oc1ccccc1` (stereo not drawn) the inhibition was inactive: 2.71%. For `O=[N+]([O-])c1cc([N+](=O)[O-])c(Nc2nnnn2CCO)c([N+](=O)[O-])c1`, the inhibition was inactive: -2.2%. `CC1=C2N=C(C=C3N=C(C(C)=C4[N-][C@@](C)([C@@H]5N=C1[C@](C)(CCC(=O)NC[C@@H](C)OP(=O)([O-])O[C@H]1[C@@H](O)[C@@H](n6cnc7cc(C)c(C)cc76)O[C@@H]1CO)[C@H]5CC(N)=O)[C@@](C)(CC(N)=O)[C@@H]4CCC(N)=O)[C@@](C)(CC(N)=O)[C@@H]3CCC(N)=O)C(C)(C)[C@@H]2CCC(N)=O.[C-]#N.[Co+3]` was tested, and the inhibition was inactive: -2.41%. For `CCOC(=O)C(CC)C1=NC(C)(C)Cc2ccccc21.O=[N+]([O-])c1cc([N+](=O)[O-])c(O)c([N+](=O)[O-])c1` (stereo not drawn), the inhibition was inactive: 3.16%. For `CP(=O)(Nc1ccc(SC(F)(F)F)cc1)Oc1ccccc1` (stereo not drawn), the inhibition was inactive: -4.39%. With `CCCOc1ccc(NP(C)(=O)Oc2ccc(Cl)cc2)cc1` (stereo not drawn) the inhibition was inactive: 4.74%. `COc1ccccc1OP(C)(=O)Nc1c(C)cccc1C` (stereo not drawn) was tested, and the inhibition was inactive: 9.14%. In the case of `CN1CCCCC1COC(=O)C1(O)c2ccccc2CCc2ccccc21` (stereo not drawn), the inhibition is reported as inactive: -2.32%. With `O=[N+]([O-])c1cc([N+](=O)[O-])c(-n2nnc3ccccc32)c([N+](=O)[O-])c1` the inhibition was inactive: -1.73%. With `Cc1nc2ccc3ccccc3c2s1.O=[N+]([O-])c1cc([N+](=O)[O-])c(O)c([N+](=O)[O-])c1` the inhibition was inactive: 4.42%. In the case of `O=[N+]([O-])c1cc([N+](=O)[O-])c(-c2cnn(-c3ccccc3)c2)c([N+](=O)[O-])c1`, the inhibition is reported as inactive: 7.63%. In the case of `CCOC(=O)c1ccc(NP(C)(=O)Oc2cc(C)cc(C)c2)cc1` (stereo not drawn), the inhibition is reported as inactive: -6.84%. With `Cc1cc(C)cc(OP(C)(=O)Nc2ccc(C)cc2C)c1` (stereo not drawn) the inhibition was inactive: 2.44%. With `COc1ccccc1OP(C)(=O)Nc1cccc(Br)c1` (stereo not drawn) the inhibition was inactive: -3.71%. For `Cc1ccc(C)c(NP(C)(=O)Oc2ccccc2)c1` (stereo not drawn), the inhibition was inactive: 1.5%. In the case of `CP(=O)(Nc1cccc(Br)c1)Oc1ccccc1` (stereo not drawn), the inhibition is reported as inactive: -1%. With `Cc1cc(C)cc(OP(C)(=O)Nc2ccccn2)c1` (stereo not drawn) the inhibition was inactive: -3.39%. With `O=C(O)c1cccc(Nc2c([N+](=O)[O-])cc([N+](=O)[O-])cc2[N+](=O)[O-])c1` the inhibition was inactive: 1.74%. In the case of `CC1=NCCc2c1[nH]c1ccccc21.O=[N+]([O-])c1cc([N+](=O)[O-])c(O)c([N+](=O)[O-])c1`, the inhibition is reported as inactive: -1.09%.
